Results reported in US6369208B1, “Capped synthetic RNA, analogs, and aptamers” (Merck & Co., Inc., priority 1995, dated 2002).

The chains behind the UniProt entries cited, without tags or fusion partners. Where a name states a change or a piece, a line headed by the entry shows the natural chain unless it says otherwise.
UniProt P03428: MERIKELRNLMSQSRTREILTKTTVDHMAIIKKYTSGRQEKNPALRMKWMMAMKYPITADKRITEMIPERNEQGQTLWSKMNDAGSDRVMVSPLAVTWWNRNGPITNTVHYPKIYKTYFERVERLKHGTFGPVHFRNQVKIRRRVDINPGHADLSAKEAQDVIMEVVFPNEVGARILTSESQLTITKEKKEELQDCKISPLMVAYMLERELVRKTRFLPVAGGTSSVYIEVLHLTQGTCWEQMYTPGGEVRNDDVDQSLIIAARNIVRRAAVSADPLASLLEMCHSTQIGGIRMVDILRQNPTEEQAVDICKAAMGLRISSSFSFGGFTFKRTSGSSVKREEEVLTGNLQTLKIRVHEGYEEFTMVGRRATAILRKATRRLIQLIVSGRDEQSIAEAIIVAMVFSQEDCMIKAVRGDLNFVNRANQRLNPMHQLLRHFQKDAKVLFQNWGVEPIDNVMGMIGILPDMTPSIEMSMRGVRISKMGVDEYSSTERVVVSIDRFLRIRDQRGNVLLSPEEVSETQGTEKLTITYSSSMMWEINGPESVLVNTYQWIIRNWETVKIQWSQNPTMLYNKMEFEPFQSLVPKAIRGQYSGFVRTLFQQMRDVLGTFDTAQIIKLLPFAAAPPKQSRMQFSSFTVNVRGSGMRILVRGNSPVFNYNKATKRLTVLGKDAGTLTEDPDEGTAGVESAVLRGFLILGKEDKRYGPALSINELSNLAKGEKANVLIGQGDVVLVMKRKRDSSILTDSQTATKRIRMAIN

What was measured:
influenza endonuclease [1] = target: T1, influenza endonuclease (Influenza A virus, UniProt P03428+P03433)
influenza endonuclease [2] = target: T1, influenza endonuclease; remark: listed apart in the source

Work on “m^7GpppG(2′-OMe)UAUUAAUA(3′-dA)-3′ [SEQ.ID.NO.:3]” yielded a Kd (influenza endonuclease [1]) of 0.17 nM and an IC50 (influenza endonuclease [2]) of 0.083 nM.
